Assay [1] has as its target at least four other nAChR subtypes. Briefly: cell-based or functional assay.
Assay [2] deals with α7 nAChR (nicotinic acetylcholine receptor), expressed in Xenopus laevis oocytes (Human) (UniProt P36544). Briefly: cell-based or functional assay.

Where only a bound is given, the exact number is not on record here.

Turning to “RVG peptide (rabies viral glycoprotein peptide)”, the inhibition of ACh-mediated currents at 100 µM peptide (rapid screening) is more than 25 % inhibition in assay [1] and 80 % inhibition in assay [2].
